Test results as given in the supplement of paper PMC9931576.
Where a chain is given by its changes, count along the chain named. Human monoclonal antibodies against the spike receptor-binding domain (heavy:light variable regions). IC50 against pseudoviruses bearing the spike of naturally observed variants; lower = stronger; >10 µg/ml means not reached at the top dose. No active / inactive call. The stated detection limit is 0.0005 µg/ml; values near or below 0.001 µg/ml lie at the floor of the assay.

B1: BD57-0388 (protein)
chain 1: QVQLVQSGAEVKRPGASVTVSCKASGYSFSSYAISWLRQAPEQGPEWMGWINTHSGDTNFAQKFQGRVTMTTDTSTSTAYMALRSLTSDDTAVYYCARGVLERFMNMIVAPGSFDQWGQGTLVTVSS
chain 2: DIQMTQSPSTLSASVGDRVTITCRASQSISDWLAWYQQKPGKAPKLLIYKASSFESGVPSRFRGSGSGTEFTLTISSLQPDDFATYYCQQYKTSTYTFGQGTRLEIK
B2: BD57-0385 (protein)
chain 1: QMQLVQSGPEMKKPGTSMKVSCKASVFTFDTSSVQWVRQARGQRLEWIGWIVLGSGYTDYAQEFQERVTITRDMSTSTVYMELNRLRSEDTAVYYCAAPYCNRTTCRDGFDLWGQGTMVTVSS
chain 2: EIVLTQSPGTLSLSPGKRATLSCRARQSVSRSLLAWYQQKPGQAPRLLIYGASSRATGIPDRFSGSGSGTDFTLTISRLEPEDFAVYYCQQYGTSPWTFGQGTKVEIK
B3: BG7-15 (protein)
chain 1: QVQLVQSGAEVKKPGASVKVSCKASGYTFTSYAISWVRQAPGQGLEWMGWVSAYNGNTNYAQKLQGRVTMTTDTSTNTAYMELRSLRSDDTAIYYCAIPYSSVTFDCWGQGTLVTVSS
chain 2: B2 chain 2 with K17E, R26S, R31G, S32T, L33F, Y50S, T94S, P96R, W97P, V105L
B4: BD57-0389 (protein)
chain 1: QVQLVESGGGVVQPGRSLRLSCAASGFTFSNYGMHWVRQAPGKGPEWVALISYDGSDKYYGDSVKGRFTISRDSSKNTLFLQMNSLRAEDTAVYYCAKGPWYSSSWEYYFEYWGQGTLVTVSS
chain 2: DIQMTQSPSSLSASLGDRVTITCRASQTISTFLNWYQQKPGKAPNLLIYDVSSLQSGVPSRFSGSGSGTDFTLTISSMQPEDFATYYCQQSYSIPLTFGGGTKLEIK
B5: BD57-0393 (protein)
chain 1: B4 chain 1 with S30K, S56G
chain 2: B4 chain 2 with S30G, V51A, M78L, L104M
B6: BD57-0387 (protein)
chain 1: EVQLVQSGAEVKKPGESLRISCKGSGYSFTTYWIGWVRQMPGKGLEWMGIIYPGDSETTYSPTFRGQVTISADKSINTAYLQWSSLTASDTAMYYCARRSGSGSFPSLDYWGQGTPVTVSS
chain 2: DIQMTQSPSSLSASVGDRITITCRASQSISSYLNWYQQKPGKVPQLLIYGASSLQSGVPSRFRGSGSGTDFTLTIRSLQPEDFATYYCQQSYSTMALTFGGGTKVEIK
B7: BD57-0368 (protein)
chain 1: QVQLVQSGAEVKKPGASVKVSCKASGYSFTSHYMHWVRQAPGQGLEWMGLINPSGGTTSYTQKFRGRVSMTRDTSTGTVFLELSSLRSDDTAVYYCARDGGSCSSDRCDPADWFDPWGQGTLVTVSS
chain 2: SYVLTQPPSVSVAPGQTARITCGGDDIGSKSVHWYQQKPGQAPVLVIYYDTDRPSGIPERFSGSNSGSTATLTISRAEAGDEADYYCQVWDGSSDHHYVFGTGTKVTVL
B8: BD57-0377 (protein)
chain 1: EVQLVESGGGLVQPGGSLRLSCAASGFTFSSYDMHWVRQGTGKGLEWVSAIGTTGYRYYPDSVKGRFTISRENAKNSVHLQMNSLRAGDTAVYYCARVGYDGSGFYSYFDLWGQGTLVTVSS
chain 2: DIQMTQSPSSLSASVGDRVTITCRASQTIGGYLNWYQQKPGKAPKLLIYAASRLQSGVPSRFSGSGSGTDFTLTISSLQPEDFATYTCQQSYSTSALTFGGGTKVEIK
B9: BD57-0362 (protein)
chain 1: EVLLVESGGGLVKPGGSLRLSCAASGLAFSSYSINWVRQAPGKGLEWVSSISSTGSSIYYADSVKGRFTISRDNAKNSLYLQMNSLRAEDTAVYYCARDQGNLYGSGRGAFGYWGQGTLVTVSS
chain 2: QSALTQPASVSGSPGQSITISCTGTTSDIGSYTFVSWYQQHPGKAPQLIIYDVSDRPSGVSNRFSGSKSGNTASLTISGLQAEDEADYYCGSYTGSSLLFGGGTKLTVL
B10: BD57-0376 (protein)
chain 1: EVQLVESGGGLVQPGRSLRLSCAASGFTFDDYAMHWVRQAPGKGLEWVSGISWDSGIIAYADSVKGRFTISRDNAKNSLYLQMNSLRAEDTAFYYCAKGEKQQLINDPLDYWGQGTLVTVSS
chain 2: SYVLTQPPSVSVAPGKTARITCGGDSIGSKNVHWYQQKPGQAPVLVIYYDSDRPSGIPERFSGSNSGNTATLTISRVEAGDEADYYCQVWDPHVVFGGGTKLTVL
B11: BD57-0366 (protein)
chain 1: QVQLVQSGAEVKKPGSSVKVSCKASGGTFRNYAISWVRQAPGQGLEWMGGIMPMYHTSEYAEKFQGRVTFMADESTSTAYMELSSLRSEDTAVYYCARDLGHSYGRPSYYYYIDVWGKGTTVTVSS
chain 2: QAVVTQEPSLTVSPGGTVTLTCGSSTGAVTSGHYPSWFQQKPGQAPRTLIYDTYNKHSWTPARFSGSLLGGKAALTLSGAQPEDEADYYCFFSYVGGRPGVFGGGTKLTVL
B12: BD57-0410 (protein)
chain 1: EVQLVESGGGLVKPGGSLRLSCAASGFTFSNAWMTWVRQAPGTGLEWVGRIKSKIDGGTTDYAASVKGRFTISRDDSKNRLYLQMNSLKTEDTAVYYCATVSPLQFWLVGEDNALDIWGQGTMVTVSP
chain 2: DIVLTQSPGTLSLSPGERATLSCRASQSVSSSYLAWYQQKPGQAPRLLIYGALSRAAGIPDRFSGSGSGTDFTLTITRLEPEDFAVYYCQHYDISSQTFGQGTKVEIK
B13: BD57-0356 (protein)
chain 1: QVQLVQSGAEVKKPGSSVKVSCKISGGIFVNYAVSWVRQAPGQGLQWVGGLIPILRTTDYTQKFQGRVTITADDSMTTTYMELSSLTSEDTAVYYCATGVRYCSGTTCYTAYLQDWGQGTPVTVSS
chain 2: EIVLTQSPGTLSLSPGERATLSCRASQSLSNSYLAWYQQKPGRAPRLLLYGTSTRAPGIPDRFSGSGSGTDFTLTISGLEPEDFAVYYCQQYGSSPRTFGQGTAVEFK

What follows are binders tested against SARS-CoV-2 Omicron BA.1 spike pseudovirus (assay: pseudovirus neutralization IC50; higher = weaker neutralization).
Method: (§1)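 Single-round VSV luciferase pseudovirus mixed with antibody dilutions for 1 h and put on Huh-7 cells for about a day; IC50 from the dose curve.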

First: B1
Second: B2
The “pseudovirus neutralization IC50” value of the first is higher: greater than 10 µg/mL for the first, 0.00626 µg/mL for the second.

First: B3
Second: B4
The “pseudovirus neutralization IC50” value of the first is higher: greater than 10 µg/mL for the first, 1.49 µg/mL for the second.

First: B5
Second: B6
The “pseudovirus neutralization IC50” value of the first is 2.6-fold higher: 3.74 µg/mL for the first, 1.44 µg/mL for the second.

Compared with B7, B8 is higher in “pseudovirus neutralization IC50” value: 2.74 µg/mL for the first, greater than 10 µg/mL for the second.

B9 and B10 cannot be ordered by “pseudovirus neutralization IC50” value: greater than 10 µg/mL for the first, greater than 10 µg/mL for the second.

First: B11
Second: B12
The “pseudovirus neutralization IC50” value of the first is 510-fold lower: 0.0189 µg/mL for the first, 9.64 µg/mL for the second.

In the case of B13, the “pseudovirus neutralization IC50” value is reported as 0.0621 µg/mL.

Each binder was assayed against SARS-CoV-2 Omicron BA.2 spike pseudovirus in the same assay as above.
Method: as §1

Going from B1 to B2, the “pseudovirus neutralization IC50” value falls from greater than 10 µg/mL to 0.00429 µg/mL.

Going from B3 to B4, the “pseudovirus neutralization IC50” value rises from 0.543 µg/mL to 3.16 µg/mL (5.8-fold).

B5 and B6 are within 1.5-fold of each other in “pseudovirus neutralization IC50” value: 1.65 µg/mL for the first, 1.93 µg/mL for the second.

Going from B7 to B8, the “pseudovirus neutralization IC50” value rises from 3.4 µg/mL to greater than 10 µg/mL.

B9 and B10 cannot be ordered by “pseudovirus neutralization IC50” value: greater than 10 µg/mL for the first, greater than 10 µg/mL for the second.

Compared with B11, B12 is 380-fold higher in “pseudovirus neutralization IC50” value: 0.0191 µg/mL for the first, 7.18 µg/mL for the second.

B13 was tested, and the “pseudovirus neutralization IC50” value was 0.00378 µg/mL.

What follows are binders tested against SARS-CoV-2 Omicron BA.2.75 spike pseudovirus in the same assay as above.
Method: as §1

Compared with B1, B2 is lower in “pseudovirus neutralization IC50” value: greater than 10 µg/mL for the first, 0.00645 µg/mL for the second.

First: B3
Second: B4
The “pseudovirus neutralization IC50” value of the first is higher: greater than 10 µg/mL for the first, 3.28 µg/mL for the second.

B5 and B6 are within 1.5-fold of each other in “pseudovirus neutralization IC50” value: 1.67 µg/mL for the first, 1.65 µg/mL for the second.

First: B7
Second: B8
The “pseudovirus neutralization IC50” value of the first is lower: 5.51 µg/mL for the first, greater than 10 µg/mL for the second.

B9 and B10 cannot be ordered by “pseudovirus neutralization IC50” value: greater than 10 µg/mL for the first, greater than 10 µg/mL for the second.

Compared with B11, B12 is 160-fold higher in “pseudovirus neutralization IC50” value: 0.0577 µg/mL for the first, 9.5 µg/mL for the second.

In the case of B13, the “pseudovirus neutralization IC50” value is reported as 0.00237 µg/mL.

The binders below were run against SARS-CoV-2 Omicron BA.5 spike pseudovirus in the same assay as above.
Method: as §1

First: B1
Second: B2
The “pseudovirus neutralization IC50” value of the first is higher: greater than 10 µg/mL for the first, 9.71 µg/mL for the second.

Going from B3 to B4, the “pseudovirus neutralization IC50” value rises from 0.889 µg/mL to 3.76 µg/mL (4.2-fold).

Going from B5 to B6, the “pseudovirus neutralization IC50” value rises from 3.21 µg/mL to greater than 10 µg/mL.

First: B7
Second: B8
The “pseudovirus neutralization IC50” value of the first is lower: 5.57 µg/mL for the first, greater than 10 µg/mL for the second.

B9 and B10 cannot be ordered by “pseudovirus neutralization IC50” value: greater than 10 µg/mL for the first, greater than 10 µg/mL for the second.

Compared with B11, B12 is 980-fold higher in “pseudovirus neutralization IC50” value: 0.0077 µg/mL for the first, 7.56 µg/mL for the second.

With B13 the “pseudovirus neutralization IC50” value was 0.646 µg/mL.

Each binder was assayed against SARS-CoV-2 Omicron BQ.1.1 spike pseudovirus in the same assay as above.
Method: as §1

B1 and B2 cannot be ordered by “pseudovirus neutralization IC50” value: greater than 10 µg/mL for the first, greater than 10 µg/mL for the second.

Compared with B4, B5 is 2.8-fold higher in “pseudovirus neutralization IC50” value: 1.33 µg/mL for the first, 3.74 µg/mL for the second.

B6 and B7 cannot be ordered by “pseudovirus neutralization IC50” value: greater than 10 µg/mL for the first, greater than 10 µg/mL for the second.

B8 and B9 cannot be ordered by “pseudovirus neutralization IC50” value: greater than 10 µg/mL for the first, greater than 10 µg/mL for the second.

B10 and B11 cannot be ordered by “pseudovirus neutralization IC50” value: greater than 10 µg/mL for the first, greater than 10 µg/mL for the second.

B12 and B13 cannot be ordered by “pseudovirus neutralization IC50” value: greater than 10 µg/mL for the first, greater than 10 µg/mL for the second.

The binders below were run against SARS-CoV-2 Omicron XBB spike pseudovirus in the same assay as above.
Method: as §1

B1 and B2 cannot be ordered by “pseudovirus neutralization IC50” value: greater than 10 µg/mL for the first, greater than 10 µg/mL for the second.

Going from B3 to B4, the “pseudovirus neutralization IC50” value falls from greater than 10 µg/mL to 1.21 µg/mL.

Compared with B5, B6 is higher in “pseudovirus neutralization IC50” value: 1.77 µg/mL for the first, greater than 10 µg/mL for the second.

First: B7
Second: B8
The “pseudovirus neutralization IC50” value of the first is lower: 5.18 µg/mL for the first, greater than 10 µg/mL for the second.

B9 and B10 cannot be ordered by “pseudovirus neutralization IC50” value: greater than 10 µg/mL for the first, greater than 10 µg/mL for the second.

B11 and B12 cannot be ordered by “pseudovirus neutralization IC50” value: greater than 10 µg/mL for the first, greater than 10 µg/mL for the second.

B13 was tested, and the “pseudovirus neutralization IC50” value was greater than 10 µg/mL.

The binders below were run against SARS-CoV-2 early D614G spike pseudovirus in the same assay as above.
Method: as §1

First: B1
Second: B2
The “pseudovirus neutralization IC50” value of the first is higher: greater than 10 µg/mL for the first, 0.00357 µg/mL for the second.

Compared with B3, B4 is higher in “pseudovirus neutralization IC50” value: 0.0015 µg/mL for the first, greater than 10 µg/mL for the second.

B5 and B6 cannot be ordered by “pseudovirus neutralization IC50” value: greater than 10 µg/mL for the first, greater than 10 µg/mL for the second.

Going from B7 to B8, the “pseudovirus neutralization IC50” value rises from 7.56 µg/mL to greater than 10 µg/mL.

Compared with B9, B10 is lower in “pseudovirus neutralization IC50” value: greater than 10 µg/mL for the first, 3.17 µg/mL for the second.

First: B11
Second: B12
The “pseudovirus neutralization IC50” value of the first is lower: 0.0111 µg/mL for the first, greater than 10 µg/mL for the second.

B13 was tested, and the “pseudovirus neutralization IC50” value was 0.000868 µg/mL.
